Reference: ChEMBL document CHEMBL1275403 (J Med Chem, 2010)

Assay: Cytotoxicity against mouse ScGT1 cells assessed as cell viability at 1 uM after 5 days by calcein-AM assay
Assay type: cell-based
Conditions: scgt1, 120 h
In short: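 ScGT1 cells in DMEM with 10% FBS were plated at 25000 cells/well. Compounds were dissolved in DMSO, diluted in PBS and added at 10 nM–10 μM. Cells were incubated 5 days at 37 °C, 5% CO2. Viability was read by calcein-AM fluorescence as average percent viable cells versus untreated control. Values are mean of three experiments with SD.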

O=C1C=C(NCCCNc2c3c(nc4ccccc24)CCCC3)C(=O)C=C1NCCCNc1c2c(nc3ccccc13)CCCC2
Activity: 104%
